Values of other authors as cited in patent publication US20070259014A1, “Compositions for and Methods for Treating Hiv” (VGX PHARMACEUTICALS, INC., priority 2003, published 2007).
Like-named read-outs stand apart in the source and are kept apart here.

Columns and labels:
[1] = daily oral doses of 1-200 mg (4-30 days), published studies; cited from earlier work
[2] = cited from earlier work

## 11β-(4dimethylaminophenyl)-17β-hydroxy-17-α-(propyl-lynyl)-4,9-dien-3-one [Mifepristone]
[1]
  steady-state drug concentrations in patient serum: 35 to 2300 ng/mL
[2]; 40 nM Mifepristone
  Mifepristone not protein bound in serum: 2.7%
[2]; 2.5 microM Mifepristone
  Mifepristone not protein bound in serum: 2.4%
